PubChem BioAssay AID504761, Drosophila RNAi Screening Center | 2011
The deposit covers about 22,000 reagents; below is a random part of those that have a named target and a result. Over the whole deposit, 116 (0.52%) were called active. 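Calls depend on retest data that are not deposited; infection was ranked per plate without normalising between plates; the unit of the infection score is not given.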 Entries without a mark were called inactive. A plus sign joins genes that one reagent is predicted to hit. Not all columns of the deposit are shown. Not given: the amount of reagent, the time to read-out.

Purpose: 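Insect host genes that dengue virus relies on to spread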 (primary screen)
Cell system: D.Mel-2 cells from Drosophila
Reagent: long dsRNA against Drosophila genes
Treatment: infection with dengue virus type 2; dose and infection time not stated
Measurement: 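Cells stained for dengue envelope protein and imaged; percent of infected cells per well on duplicate plates, ranked by infection, with stained nuclei counted for cell number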
Direction: infection score: higher = more virus-infected cells
Active means: 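Low infection ranks in the two replicates (chance level up to 0.065) followed by a retest with a 1.5-fold or larger significant decrease, p below 0.05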
Meaning of the calls: active = confirmed: knock-down lowers infection; inactive = not picked or not confirmed

With atk (artichoke) [DRSC11418], what was measured?
infection score, replicate 1: 1.81

What did the screen give for atk (artichoke) [DRSC11769]?
infection score, replicate 1: 4.95

With atk (artichoke) [DRSC26412], what does the deposit list?
infection score, replicate 1: 1.35

What is on record for Tif-IA [DRSC03717]?
infection score, replicate 1: 18.6

What is on record for Tif-IA [DRSC03726]?
infection score, replicate 1: 29.2

How did the screen score CG1316 [DRSC08304]?
infection score, replicate 1: 2.43

For d4 [DRSC04881], how do the results read?
infection score, replicate 1: 10.6

Which result is listed for d4 [DRSC22674]?
infection score, replicate 1: 4.14

What did the screen give for d4 [DRSC26581]?
infection score, replicate 1: 1.55

How did the screen score CNT2 (Concentrative nucleoside transporter 2) [DRSC07073]?
infection score, replicate 1: 15.1

For Klp67A + CG34456 [DRSC10420], what was measured?
infection score, replicate 1: 0.75

What is on record for shn (schnurri) [DRSC05266]?
infection score, replicate 1: 1.33

What did the screen give for shn (schnurri) [DRSC07681]?
infection score, replicate 1: 11.1

With CG31406 [DRSC12777], what was measured?
infection score, replicate 1: 0.66

What did the screen give for CG31406 [DRSC26169]?
infection score, replicate 1: 13.7

What is on record for Obp50e (Odorant-binding protein 50e) [DRSC06434]?
infection score, replicate 1: 22.6

For Ripalpha (RPA-interacting protein alpha) [DRSC02657], what does the deposit list?
infection score, replicate 1: 3.96

For CG32512 [DRSC20519], what was measured?
infection score, replicate 1: 7.92

How did the screen score CG32512 [DRSC20551]?
infection score, replicate 1: 3.94

With CG32512 [DRSC21401], what was measured?
infection score, replicate 1: 2.41

Which result is listed for CG15200 [DRSC19647]?
infection score, replicate 1: 1.11

Which result is listed for CG15200 [DRSC24618]?
infection score, replicate 1: 8.12

With Cap-D2 (CAP-D2 condensin subunit) [DRSC15401], what does the deposit list?
infection score, replicate 1: 6.04

With Cap-D2 (CAP-D2 condensin subunit) [DRSC24096], what does the deposit list?
infection score, replicate 1: 1.68

How did the screen score regucalcin [DRSC20366]?
infection score, replicate 1: 14.7

What did the screen give for regucalcin [DRSC25592]?
infection score, replicate 1: 12.9

With tau [DRSC23046], what does the deposit list?
infection score, replicate 1: 1.22

Look-ups from the list:
Under “infection score, replicate 1”, d4 [DRSC22674] shows 4.14
CG15200 [DRSC19647], infection score, replicate 1 = 1.11
Result for CG15200 [DRSC24618] under “infection score, replicate 1”: 8.12
